Pooled drug test results. Numbers come from NIAID ChemDB, via PubChem.

Common to all: toxicity to cultured cells; cell line: Huh 5-2; endpoint: CC50

CCn is the concentration with n% toxicity to the cells. Neighbouring rows are from separate reports. An empty or dashed field is not shown.

| compound | method | result |
|---|---|---|
| COC(=O)/C=C1\S/C(=N/N=C/C2CCCCC2)NC1=O | MTS / absorbance | 29.9 µM |
| CNc1ncnc2c1ncn2[C@@H]1O[C@H](CO)[C@](O)(CN=[N+]=[N-])[C@H]1O | WST | >100 µM |
| COC(=O)/C=C1\S/C(=N/N=C/c2cc(OC)c(O)c(OC)c2)NC1=O | MTS / absorbance | 26.2 µM |
| CCCCCc1ccc(CC#Cc2nc(C(N)=O)nn2COCCO)cc1 | - | 25 µg/mL |
| COC(=O)/C=C1\S/C(=N/N=C/c2ccc(OCc3ccccc3)cc2)NC1=O | MTS / absorbance | >50 µM |
| COc1ccc(CC#Cc2nc(C(N)=O)nn2COCCO)cc1 | - | >50 µg/mL |
| OC[C@H]1O[C@@H](n2cnc3cncnc32)[C@H](O)[C@@]1(O)CF | WST | >100 µM |
| O=c1ccoc2cc(-c3ccccc3)c(OCc3cccc([N+](=O)[O-])c3)c(O)c12 | WST | 35 µM |
| N#Cc1cccc(S(=O)(=O)N(Cc2c(Cl)cccc2Cl)c2cccc(C(=O)NC3CCC3)c2)c1 | absorbance | >33 µM |
| NC(=O)c1nc(C#CCC2(O)CCCC2)n(COCCO)n1 | - | >50 µg/mL |
| Fc1cccc(Cn2ccc3nc(-c4ccccc4)nc-3c2)c1 | - | 3 µg/mL |
| COc1ccc(/C=C2\S/C(=N/S(=O)(=O)c3ccc(Cl)cc3)NC2=O)cc1 | MTS | 71.07 µM |
| COc1cccc(COc2c(-c3ccccc3)cc3occc(=O)c3c2O)c1 | WST | 45 µM |
| [N-]=[N+]=NC[C@@]1(O)[C@@H](CO)O[C@@H](n2cnc3c(=O)[nH]cnc32)[C@@H]1O | WST | >100 µM |
| NC(=O)c1nc(C#CCc2ccc(F)cc2)n(COCCO)n1 | - | >50 µg/mL |
| COC(=O)/C=C1\S/C(=N/N=C/c2ccc(N(C)C)cc2)NC1=O | MTS / absorbance | >50 µM |
| Ic1ccc(Cn2ccc3nc(-c4ccccc4)nc-3c2)cc1 | - | 6 µg/mL |
| O=c1ccoc2cc(-c3ccccc3)c(OCc3cccc(Br)c3)c(O)c12 | WST | 39 µM |
| Nc1ccc(S(=O)(=O)/N=C2/NC(=O)/C(=C/c3ccccc3Cl)S2)cc1 | MTS | >127 µM |
| COC(=O)/C=C1\S/C(=N/N=C/c2cccc(OC)c2)NC1=O | MTS / absorbance | >50 µM |
| COc1cc(OC)c2c(=O)cc(-c3ccc(OP(=O)(O)OP(=O)(O)O)c(N)c3)n(C)c2c1 | - | >50 µg/mL |
| NC(=O)c1nc(C#CCc2ccccc2F)n(COCCO)n1 | - | >50 µg/mL |
| COC(=O)/C=C1\S/C(=N/N=C/c2cc([N+](=O)[O-])ccc2O)NC1=O | MTS / absorbance | 5.86 µM |
| COc1ccccc1N1CCN(C(=O)CNc2ccc(S(=O)(=O)/N=C3\NC(=O)/C(=C/c4ccccc4Cl)S3)cc2)CC1 | MTS | >80 µM |
| Brc1ccc(Cn2cc3nc(-c4ccccc4)nc-3c(Br)c2)cc1 | - | 8 µg/mL |
| O=C1N/C(=N\S(=O)(=O)c2ccc(F)cc2)S/C1=C\c1ccccc1Cl | MTS | 115 µM |
| NC(=O)c1nc(C#CCC2(O)CCCCC2)n(COCCO)n1 | - | >50 µg/mL |